How the values were obtained:
human endoglin (human) = human endoglin (human) (UniProt P17813); assay: cell-based or functional assay
ICAM-1 (human) = ICAM-1 (human) (UniProt P05362); assay: cell-based or functional assay

| Substance | IC50 (nm), protein synthesis inhibition, confluent HUVEC (extrapolated) (human endoglin (human)) [nM] | IC50 (nm), protein synthesis inhibition, quiescent HUVEC (extrapolated) (human endoglin (human)) [nM] | IC50 (nm), protein synthesis inhibition, subconfluent HUVEC (human endoglin (human)) [nM] | IC50 ratio C/S (human endoglin (human)) | IC50 ratio Q/S (human endoglin (human)) | inhibition of protein synthesis in confluent HUVEC cultures at 10-8 M (human endoglin (human)) [%] | inhibition of protein synthesis in quiescent HUVEC cultures at 10-8 M (human endoglin (human)) [%] | inhibition of protein synthesis in subconfluent HUVEC cultures at 10^-10 M (human endoglin (human)) [%] | IC50 (nm), protein synthesis inhibition, confluent HUVEC (ICAM-1 (human)) [nM] | IC50 (nm), protein synthesis inhibition, subconfluent HUVEC (ICAM-1 (human)) [nM] | IC50 ratio C/S (ICAM-1 (human)) | IC50 ratio Q/S (ICAM-1 (human)) |
| --- | --- | --- | --- | --- | --- | --- | --- | --- | --- | --- | --- | --- |
| TEC-11-dgA immunotoxin (from UniProt P02879 36-302) | 180 | 230 | 0.075 | 2400 | 3070 | 20 | 10 | > 60 |  |  |  |  |
| UV-3-dgA immunotoxin (from UniProt P02879 36-302) |  |  |  |  |  |  |  |  | 80 | 9 | 8.9 | 4.1 |

Reference: patent US6451312
